Results of unrelated studies side by side (data: NIAID ChemDB).

All rows: target-level tests; organism: HIV-1; target: Reverse transcriptase

ICn: concentration for n% inhibition.

SMILES,mutations,measure,strain or isolate,read by,result
CC(C)=CCN1Cc2cccc3[nH]c(=S)n(c23)C[C@@H]1C,,IC50,,scintillation proximity,5 µM
COc1ccc2nc(C)cc(N/N=C/c3cc(OC)c(OC)c(OC)c3)c2c1,,IC50,,nucleotide incorporation,0.06 µM
N#CN=C(N)c1[nH]c2ccc(Cl)cc2c1S(=O)(=O)c1ccccc1,,IC50,,nucleotide incorporation,0.003–0.035 µM
C=C1CCC[C@H]2[C@](C)(CC3=C(O)C(=O)C=C(OC)C3=O)[C@@H](C)CC[C@]12C,,IC50,,RT activity,>50 µg/mL
CC(C)c1nnc2c3ccccc3c(N3CCc4ccc(NS(C)(=O)=O)cc4C3)nn12,,IC90,IIIB,RT activity / fluorescence,2.47 µM
CCc1ccc(-n2c(Br)nnc2SCC(=O)Nc2ccc(C(=O)O)cc2Cl)c2ccccc12,RT-Y181C,IC50,,nucleotide incorporation / radiometric,<0.05 µM
Cn1cnc(CCNC(=O)c2[nH]c3ccc(Cl)cc3c2S(=O)(=O)c2ccccc2)c1,,IC50,,nucleotide incorporation,0.003–0.035 µM
COc1ccc2c(c1)CN(c1nn3c(C(C)C)nnc3c3ccccc13)CC2,,IC50,IIIB,RT activity / fluorescence,0.24 µM
CCNC(=O)c1[nH]c2ccc(Cl)cc2c1Sc1ccccc1,,IC50,,nucleotide incorporation,0.003–0.035 µM
Cc1cc(C2CC2)cc(Cl)c1-n1c(Br)nnc1SCC(=O)Nc1ccc(C(=O)O)cc1Cl,RT-Y188L,IC50,,nucleotide incorporation / radiometric,>0.1 µM
CCc1cc(NCc2nc3c(C)ccc(C)c3o2)c(=O)[nH]c1C,RT-K103N Y181C,IC50,,nucleotide incorporation,>282 µM
COc1ccc(/C=N/Nc2cc(C)nc3ccc(OC)cc23)cc1,,IC50,,nucleotide incorporation,0.91 µM
O=C(CSc1nnc(Br)n1-c1c(Cl)cc(C2CCC2)c2ccccc12)Nc1ccc(C(=O)O)cc1Cl,RT-Y181C,IC50,,nucleotide incorporation / radiometric,<0.05 µM
Cn1ccnc1CNC(=O)c1[nH]c2ccc(Cl)cc2c1S(=O)c1ccccc1,,IC50,,nucleotide incorporation,0.003–0.035 µM
CCc1ccc(-n2c(Br)nnc2SCC(=O)Nc2ccc(C(=O)N[C@@H](CO)C(=O)OC)cc2Cl)c2ccccc12,RT-Y188L,IC50,,nucleotide incorporation / radiometric,<0.05 µM
COc1cccc(F)c1C1SCC(=O)N1c1cccc(C)c1,,IC50,,nucleotide incorporation / radiometric,28.4 µM
Cc1ccc(NC(=O)COc2cccnc2-c2cccc3ccccc23)c([N+](=O)[O-])c1,,IC50,,RT activity / ELISA / absorbance,38.3 µM
O=C(CSc1nnc(Br)n1-c1ccc(C2CC2)c2ccccc12)Nc1ccc(C(=O)N[C@@H](Cc2ccc(O)cc2)C(=O)O)cc1Cl,,IC50,,nucleotide incorporation / radiometric,<0.05 µM
NS(=O)(=O)c1ccc(NC(=O)COc2cccnc2-c2cccc3ccccc23)cc1,,IC50,,RT activity / ELISA / absorbance,>277 µM
COP(=O)(c1cc(C)cc(CCC#N)c1)c1c(C(N)=O)[nH]c2ccc(Cl)c(F)c12,Y181C/K103N,IC50,,RT activity,1.411 µM
Cn1ccnc1CNC(=O)c1[nH]c2ccc(Cl)cc2c1S(=O)(=O)c1ccccc1,,IC50,,nucleotide incorporation,0.003–0.035 µM
COc1cc(OC)c(OC)cc1/C=N/Nc1cc(C)nc2c(OC)cccc12,,IC50,,nucleotide incorporation,0.04 µM
COC(=O)[C@H](CC(C)C)NC(=O)c1ccc(NC(=O)CSc2nnc(Br)n2-c2ccc(C3CC3)c3ccccc23)c(Cl)c1,RT-Y181C,IC50,,nucleotide incorporation / radiometric,<0.05 µM
COc1cc2c(cc1OC)CN(c1nn3c(C)nnc3c3ccccc13)CC2,,IC90,KER2008,RT activity / fluorescence,0.85 µM
CC(C)OC(=O)CNC(=O)c1ccc(NC(=O)CSc2nnc(Br)n2-c2ccc(C3CC3)c3ccccc23)c(Cl)c1,RT-Y181C,IC50,,nucleotide incorporation / radiometric,<0.05 µM
Cn1ncc2c1S(=O)(=O)NC(=O)N2Cc1ccc(Br)cc1,,IC50,,,50 µM
COCCn1c(=O)nc(-c2ccc(NC(=O)CN(C)C)cc2)c2oc3ccccc3c21,,IC50,BH10,PicoGreen / fluorescence,1.4 µM
COc1ccc2c(c1)CN(c1nn3c(-c4cccs4)nnc3c3ccccc13)CC2,,IC50,IIIB,RT activity / fluorescence,20.7 µM
COc1ccc(/C=N/Nc2cc(C)nc3c(OC)cccc23)cc1,,IC50,,nucleotide incorporation,1.11 µM
COC(=O)C1=CC[C@H]2C(C(=O)OC)=CC(=O)[C@@H](C(C)C)C[C@H]12,,IC50,,nucleotide incorporation / radiometric,33.13 µg/mL
COc1cccc(/C=N/Nc2cc(C)nc3ccc(OC)cc23)c1,,IC50,,nucleotide incorporation,1.41 µM
O=C(NCCO)c1[nH]c2ccc(Cl)cc2c1Sc1ccccc1,,IC50,,nucleotide incorporation,0.003–0.035 µM
COc1ccc2nc(N/N=C/c3ccc(F)cc3)cc(C)c2c1,,IC50,,nucleotide incorporation,0.97 µM
O=C(NCc1ccncc1)c1[nH]c2ccc(Cl)cc2c1Sc1ccccc1,,IC50,,nucleotide incorporation,0.003–0.035 µM

Again, the opening 4 rows:

SMILES,mutations,measure,strain or isolate,read by,result
CC(C)=CCN1Cc2cccc3[nH]c(=S)n(c23)C[C@@H]1C,,IC50,,scintillation proximity,5 µM
COc1ccc2nc(C)cc(N/N=C/c3cc(OC)c(OC)c(OC)c3)c2c1,,IC50,,nucleotide incorporation,0.06 µM
N#CN=C(N)c1[nH]c2ccc(Cl)cc2c1S(=O)(=O)c1ccccc1,,IC50,,nucleotide incorporation,0.003–0.035 µM
C=C1CCC[C@H]2[C@](C)(CC3=C(O)C(=O)C=C(OC)C3=O)[C@@H](C)CC[C@]12C,,IC50,,RT activity,>50 µg/mL

a–b is a range or a potency band. Rows are shuffled and stem from different studies. An empty or dashed field is not shown.